Results on one compound are retold here after patent EP0018189B1 (priority 1979, dated 1980).

The structures appear in SMILES notation.

This series deals with tetanus toxoid. Briefly: Adsorption of tetanus toxoid on the adjuvant (toxoid left in supernatant). To be noted: 30 Lf/ml, pH 7.0, stirred 24 hours at room temperature.

With `CCCCCCCCCCCCCCCCCCOC(=O)[C@@H](N)Cc1ccc(O)cc1` [octadecyl tyrosine], the “tetanus toxoid in the supernatant after centrifuging” value (Procedure A: ether solution of adjuvant (0.3 ml, 30 mg/ml) added to toxoid 10 ml) is given as “no detectable tetanus toxoid”. In addition, the “tetanus toxoid in the supernatant” value (Procedure B: dry base (10 mg) added to toxoid 10 ml) was “no detectable tetanus toxoid”.
